Earlier results in patent US10258634B2, “Ciclesonide for the treatment of airway disease in horses” (Boehringer Ingelheim Vetmedica GmbH, priority 2012, dated 2019).

Legend:
[1] = system: humans; settings: aerosol administration, some studies (Grahnén et al., 1997); cited from earlier work
[2] = system: horses; settings: aerosol administration, some studies (Robinson et al., 2009); cited from earlier work

In the case of fluticasone proprionate, the measured cortisol levels [1] is given as “significant suppression” and the measured cortisol levels [2] is given as “significant suppression”.
